# Sequence variants of PSTVd loop 6 after infection

Reference: Wu et al. 2024, doi:10.1371/journal.ppat.1012142.

PSTVd intermediate strain, loop 6: wild type UGACCGCGAG, pool pattern UNNNCGNNNG; upper and lower strand joined, each 5' to 3', the first 5 letters being the upper strand, closing pairs included.

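Three N. benthamiana plants were inoculated with the whole mutant pool. Progeny were sequenced from the inoculated region (day 5), the margin of the inoculated leaf (day 10) and systemic leaves (day 12).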

Values are reads per thousand in the sample; higher means more abundant, 0 means not found. Each value is the mean of three plants. "Pool" is the share in the plasmid pool used as inoculum, on the same scale. The inoculated region was read from the minus strand, the other sites from the plus strand. Wild type was 20.7 per thousand in the pool and the most common sequence in every sample (inoculated region 195, 198, 203; leaf margin 629, 591, 734; systemic leaves 942, 870, 868).

| # | sequence | pool | inoculated region | leaf margin | systemic leaves |
|---|---|---|---|---|---|
| 1 | UAUCCGUAGG | 0.157 | 0.106 | 0.00920 | 0 |
| 2 | UGGCCGGCAG | 0.157 | 0.130 | 0.00920 | 0.00684 |
| 3 | UGUACGAGAG | 0.209 | 0.766 | 0.0754 | 0 |
| 4 | UUCACUUUUG | 0.0261 | 0 | 0 | 0 |
| 5 | UAAUCGAAGG | 0.144 | 0.108 | 0 | 0 |
| 6 | UUUACGAAGG | 0.105 | 0.101 | 0 | 0 |
| 7 | UUUGCGUGAG | 0.196 | 0.114 | 0.0169 | 0 |
| 8 | UCGUCCAGGG | 0.0131 | 0 | 0 | 0 |
| 9 | UCAGCGAGCG | 0.170 | 0.0417 | 0 | 0 |
| 10 | UUAGCGUUAG | 0.445 | 0.0947 | 0 | 0.0272 |
| 11 | UCACCGGUAG | 0.196 | 0.0958 | 0.0416 | 0 |
| 12 | UAUUCGUUAG | 0.575 | 0.155 | 0 | 0 |
| 13 | UAAUCGAUCG | 0.170 | 0.0953 | 0.00773 | 0 |
| 14 | UACUCGUAGG | 0.353 | 0.0712 | 0.00773 | 0 |
| 15 | UAAUCGUUCG | 0.340 | 0.0773 | 0.0184 | 0 |
| 16 | UCAGCGAUCG | 0.248 | 0.0768 | 0 | 0 |
| 17 | UAGGCGCGCG | 0.222 | 0.114 | 0.00920 | 0 |
| 18 | UAACCGGCCG | 0.131 | 0.0959 | 0 | 0 |
| 19 | UACCCGUUAG | 0.340 | 0.113 | 0 | 0 |
| 20 | UUACCGAGUG | 0.248 | 0.221 | 0.00920 | 0 |
| 21 | UGAUCGCAGG | 0.248 | 0.0768 | 0 | 0 |
| 22 | UACUCGAAGG | 0.196 | 0.0602 | 0 | 0 |
| 23 | UCCUUGUUUG | 0.0131 | 0 | 0 | 0 |
| 24 | UUAUCGGAAG | 0.144 | 0.637 | 0.0944 | 0 |
| 25 | UUCUCGAGUG | 0.261 | 0.125 | 0.00773 | 0 |
| 26 | UCACCGGCAG | 0.196 | 0.100 | 0.0232 | 0 |
| 27 | UGCUCGGGUG | 0.209 | 0.0710 | 0 | 0 |
| 28 | UGGGCGAGGG | 0.170 | 0.118 | 0 | 0 |
| 29 | UAUGCGCAAG | 0.0784 | 0.150 | 0 | 0 |
| 30 | UGUGCGAUAG | 0.418 | 0.0887 | 0.0464 | 0 |
| 31 | UAGUCGCUGG | 0.196 | 0.0540 | 0.00773 | 0 |
| 32 | UGUGCGGGGG | 0.0784 | 0.0712 | 0 | 0 |
| 33 | UCUGCGGUGG | 0.471 | 0.124 | 0 | 0 |
| 34 | UCAGCGGGGU | 0.0131 | 0 | 0 | 0 |
| 35 | UUACCGUCGG | 0.222 | 0.0956 | 0.0169 | 0 |
| 36 | UUCUCGCGAG | 0.366 | 0.375 | 0.670 | 0.0536 |
| 37 | UUUCCGUGCG | 0.157 | 0.131 | 0.00773 | 0 |
| 38 | UUCACGGGAG | 0.327 | 0.643 | 0.0484 | 0 |
| 39 | UUGGCGCGAU | 0.0261 | 0.0550 | 0.0276 | 0 |
| 40 | UCGUCGGACG | 0.170 | 0.0598 | 0 | 0 |
| 41 | UCGACGCGUG | 0.131 | 0.126 | 0.0276 | 0 |
| 42 | UAGACUGUCG | 0.0131 | 0 | 0 | 0 |
| 43 | UCCCCGAGGG | 0.144 | 0.0715 | 0.00773 | 0 |
| 44 | UACCCGUGGG | 0.170 | 0.142 | 0.0169 | 0 |
| 45 | UAGACGACGG | 0.209 | 0.0951 | 0 | 0 |
| 46 | UCCACGGCGG | 0.157 | 0.0538 | 0.0155 | 0 |
| 47 | UCCGCGCUUG | 0.261 | 0.144 | 0 | 0 |
| 48 | UCAACGGAAG | 0.0392 | 0.560 | 0.0776 | 0 |
| 49 | UAAGCGCUGG | 0.157 | 0.0889 | 0 | 0 |
| 50 | UAUUCGUCCG | 0.196 | 0.0768 | 0 | 0 |
| 51 | UAUACGUUCG | 0.301 | 0.166 | 0.0276 | 0 |
| 52 | UUUUCGACCG | 0.144 | 0.0959 | 0 | 0 |
| 53 | UUGACGCUGG | 0.157 | 0.0897 | 0 | 0 |
| 54 | UUUGCGUGCG | 0.235 | 0.0827 | 0 | 0.00684 |
| 55 | UAUCCGGCGG | 0.196 | 0.114 | 0.00920 | 0 |
| 56 | UUGGCGGUGG | 0.405 | 0.113 | 0.00773 | 0 |
| 57 | UUCGCGCGAG | 0.340 | 0.149 | 0.473 | 0.0527 |
| 58 | UCGGCGCGAU | 0.0131 | 0.0962 | 0.00920 | 0 |
| 59 | UUCUCGACGG | 0.353 | 0.0963 | 0.00773 | 0 |
| 60 | UUUUCGGACG | 0.261 | 0.0824 | 0 | 0 |
| 61 | UAAGCGCCAG | 0.118 | 0.107 | 0.00920 | 0 |
| 62 | UGGUCGGCAG | 0.209 | 0.0714 | 0 | 0 |

With 36,220-57,551 reads a sample, very low values are single reads. Sequences that differ at fixed positions probably stem from PCR or sequencing errors, and defective variants can be carried along by functional ones.